According to patent publication US20160356776:

Molecular target: his-tagged recombinant CFP-SNAP-25-YFP chimera protein (purified from E. coli) (UniProt P60881)

Substance: botulinum neurotoxin A (BoNT/A) holotoxin
- FRET ratio against toxin concentration over time, plate reader: higher toxin concentration resulted in faster decrease of the FRET ratio
